Measured values from several laboratories, pooled; numbers as filed in NIAID ChemDB.

Shared fields: tests in culture; agent: Candida albicans; read-out: MIC

Rows are shuffled and stem from different studies.

structure,strain or isolate,result
Cc1ccc(C(Cn2ccnc2)OCc2ccc(-c3ccccc3)cc2)cc1,CA6,128 µg/mL
C[C@@H](n1cnc2cc(-n3ncnn3)ccc2c1=O)[C@](O)(Cn1cncn1)c1ccc(F)cc1F,406 strains,≤0.03 µg/mL
Cc1ccc(C(Cn2ccnc2)OCc2cccc3ccccc23)cc1,Y0109,>128 µg/mL
C[C@@H](n1cnc2cccc(F)c2c1=O)[C@](O)(Cn1cncn1)c1ccc(F)cc1F,60 strains,0.63 µg/mL
CCCCCCCCCCCCOc1ccc(-c2ccc(C(=O)N[C@H]3CCCNC(=O)C4C[C@H](N)CN4C(=O)C(C(C)O)NC(=O)C(CCc4ccc(O)cc4)NC(=O)C4C[C@@H](O)CN4C(=O)C(C(C)O)NC3=O)cc2)cc1,ATCC 62376,0.2 µg/mL
Cc1c(O)cccc1C(=O)N[C@@H](CSc1ccccc1)[C@H](O)CN1C[C@H]2CCCC[C@H]2C[C@H]1C(=O)NC(C)(C)C,I104,64 µg/mL
O[C@](Cn1cncn1)(Cn1cnc(/C=C/c2ccc(OCC(F)(F)C(F)F)cc2)n1)c1ccc(F)cc1F,Isolate 08-57,0.5 µg/mL
Cc1c(Sc2ccccc2)[n+](=O)c2cc(C(F)(F)F)ccc2n1[O-],Clinical isolate 5,15.6 µg/mL
OC(Cn1cncn1)(Cn1cncn1)c1ccc(F)cc1F,406 strains,2.5 µg/mL
Cc1ccc(C(Cn2ccnc2)OCc2ccc(C(C)(C)C)cc2)cc1,CA2,>128 µg/mL
O=[n+]1c(Sc2ccccc2)c(CBr)n([O-])c2ccccc21,Clinical isolate 6,15.6 µg/mL
CCCCCOc1ccc(-c2ccc(-c3ccc(C(=O)N[C@H]4CCCNC(=O)C5[C@@H](O)CN5C(=O)C(C(C)O)NC(=O)C(CCc5ccc(O)cc5)NC(=O)C5C[C@@H](O)CN5C(=O)C(C(C)O)NC4=O)cc3)cc2)cc1,ATCC 62376,0.2 µg/mL
Clc1ccc(C(Cn2ccnc2)OCc2cccc3ccccc23)cc1,CA6,>128 µg/mL
CCCCCCCCOc1ccc(N2CCN(c3ccc(C(=O)N[C@H]4CCCNC(=O)C5C[C@H](N)CN5C(=O)C(C(C)O)NC(=O)C(CCc5ccc(O)cc5)NC(=O)C5C[C@@H](O)CN5C(=O)C(C(C)O)NC4=O)cc3)CC2)cc1,ATCC 62376,0.39 µg/mL
C[C@@H](n1cnc2cc(C(N)=O)ccc2c1=O)[C@](O)(Cn1cncn1)c1ccc(F)cc1F,60 strains,5 µg/mL
CC(O)C1NC(=O)C(CCc2ccc(O)cc2)NC(=O)C2C[C@@H](O)CN2C(=O)C(C(C)O)NC(=O)[C@@H](N)CCCNC(=O)C2C[C@H](N)CN2C1=O,ATCC 10231,>100 µg/mL
N=C(N)c1ccc2nc(-c3ccc(-c4nc5ccc(C(=N)N)cc5[nH]4)[nH]3)[nH]c2c1,Isolate 17 (strain 12-99),0.78 µg/mL
CCCCCOc1ccc(-c2ccc(-c3ccc(C(=O)N[C@H]4CCCNC(=O)C5C[C@H](N)CN5C(=O)C(C(C)O)NC(=O)C(OCc5ccccc5)NC(=O)C5CC(O)CN5C(=O)C(C(C)O)NC4=O)cc3)cc2)cc1,ATCC 10231,1.56 µg/mL
Cc1c(S(=O)(=O)c2ccccc2)[n+](=O)c2ccccc2n1[O-],Clinical isolate 24,31.25 µg/mL
C[C@@H](n1cnc2ccc(Br)cc2c1=O)[C@](O)(Cn1cncn1)c1ccc(F)cc1F,76 strains,20 µg/mL
CCCCCOc1ccc(N(C)CCN(C)c2ccc(C(=O)N[C@H]3CCCNC(=O)C4C[C@H](N)CN4C(=O)C(C(C)O)NC(=O)C(CCc4ccc(O)cc4)NC(=O)C4C[C@@H](O)CN4C(=O)C(C(C)O)NC3=O)cc2)cc1,ATCC 10231,3.12 µg/mL
CCOc1cc2c(cc1F)n([O-])c(C)c(S(=O)(=O)c1ccccc1)[n+]2=O,Clinical isolate 1,62.5 µg/mL
CCCCCOc1ccc(-c2ccc(-c3ccc(C(=O)N[C@H]4CCCNC(=O)C5C[C@H](NC(=O)CCc6ccccc6)CN5C(=O)C(C(C)O)NC(=O)C(CCc5ccc(O)cc5)NC(=O)C5C[C@@H](O)CN5C(=O)C(C(C)O)NC4=O)cc3)cc2)cc1,ATCC 10231,25 µg/mL
CC(/C=C/C=C(\C)C(O)C(C)C(=O)O[C@H]1C[C@@H](C)C=C2C=C[C@@](C)(O)[C@](C)(C(=O)CCO)[C@H]21)=C\C=C\C(=O)O,ATCC 10231,50 µg/mL
Clc1ccc(C(Cn2ccnc2)OCc2cccc3ccccc23)c(Cl)c1,PR1,2 µg/mL
CCCCCOc1ccc(-c2ccc(-c3ccc(C(=O)N[C@H]4CCCNC(=O)C5C[C@H](NCC(N)CO)CN5C(=O)C(C(C)O)NC(=O)C(CCc5ccc(O)cc5)NC(=O)C5C[C@@H](O)CN5C(=O)C(C(C)O)NC4=O)cc3)cc2)cc1,ATCC 62376,0.39 µg/mL
Cc1c(Cl)[n+](=O)c2cc(Cl)ccc2n1[O-],Clinical isolate 12,7.8 µg/mL

Repeating the final 3 entries:

| structure | strain or isolate | result |
|---|---|---|
| Clc1ccc(C(Cn2ccnc2)OCc2cccc3ccccc23)c(Cl)c1 | PR1 | 2 µg/mL |
| CCCCCOc1ccc(-c2ccc(-c3ccc(C(=O)N[C@H]4CCCNC(=O)C5C[C@H](NCC(N)CO)CN5C(=O)C(C(C)O)NC(=O)C(CCc5ccc(O)cc5)NC(=O)C5C[C@@H](O)CN5C(=O)C(C(C)O)NC4=O)cc3)cc2)cc1 | ATCC 62376 | 0.39 µg/mL |
| Cc1c(Cl)[n+](=O)c2cc(Cl)ccc2n1[O-] | Clinical isolate 12 | 7.8 µg/mL |